The values that follow come from US6455587B1 (priority 2000, dated 2002).

The target of the experiment is T1, recombinant HIV-1 protease (Human immunodeficiency virus type 1 group M subtype B, UniProt P04585).
T1 construct: recombinant HIV-1 protease (final concentration 2.18 nM) purchased from Bachem Bioscience; purchased Bachem Bioscience
Put plainly: Enzymatic fluorometric (FRET) assay for determining the inhibition constant (Ki) against HIV protease. In kind it is biochemical. Conditions: pH 4.7. From the text: An Enzymatic assay for determining the inhibition constant (Ki) of synthetic compounds targeting the HIV protease may be carried out as follows: This is a fluorometric assay based on the cleavage by protease of a substrate carrying a donor group (EDANS) and an acceptor group (DABCYL) on each side of the cleavage site, interacting together through fluorescence resonance energy transfer (FRET). Cleavage of the substrate by protease stops energy exchange between the two groups, resulting in a time-dependent increase in fluorescence intensity that is linearly related to the extent of substrate hydrolysis.
The enzymatic assay is done at 31° C. in white 96-well fluorescence microplates, in a total volume of 200 μL per well. The apparatus used for analysis is a FL600 fluorescence microplate reader (Biotek Instruments). […] Excitation of the fluorophore is done at 340 nm and emission at 485 nm is recorded continuously during the reaction, allowing determination of the enzyme's initial velocity (v0). At the end of the 4 min incubation, the potential inhibitor at a defined concentration in a volume of 4 μL is added to the reaction, and fluorescence readings are taken for another 4 min, allowing determination of enzyme velocity (vi) in the presence of the inhibitory compound. Several concentrations of the putative inhibitors are tested in the assay. […]

Usually Ki stands for the dissociation constant of the complex between target and ligand, obtained from inhibition or displacement. For “Nα-Cyclopropylmethyl-Nα-(4-methylbenzenesulfonyl)-Nε-(9-fluorenylmethoxycarbonyl)-L-lysine [Compound 43]”, the inhibitory constant (Ki) was 9.3 µM.
